Anti-infective test results gathered from many reports (values: NIAID ChemDB through PubChem).

All rows: cytotoxicity tests; endpoint: CC50

CCn is the concentration with n% toxicity to the cells. Blank or dashed fields: not listed here. Neighbouring rows are from separate reports.

structure | read by | cell line | value
NC(=S)Nc1cccc(OCCCCCOc2ccc(-n3cccc3)cc2)c1 | MTS | Ava5-EG(delta4AB)SEAP | >1 µM
COc1cccc(NC(=O)c2c(O)c3cccnc3n(O)c2=O)c1 |  | HeLa | <100 µM
CCOC(=O)CCCCOc1ccccc1C=O |  | RAJI | >20 µM
CCN(CC)CCNC(=S)Nc1ccc2c(c1)Cc1cc(Br)ccc1-2 | MTS | Ava5-EG(delta4AB)SEAP | >1 µM
O=C(CCc1ccc2c(n1)NCCC2)NCCc1ccc(Cl)c(Cl)c1 |  | PBMC | 23 µM
CC(C)N(Cc1cccc(OCCCCCC(=O)OC(=O)O)c1)C(=O)c1ccc(-c2cccc(NC=O)c2)cc1 |  | HEK 293 | >20 µM
NC(=S)Nc1cccc(OCCCCCOc2ccncn2)c1 | MTS | Ava5-EG(delta4AB)SEAP | >1 µM
CCOC(=O)C1=C(CN2CC(F)(F)[C@H]3[C@@H]2CCN3CC[C@@](C)(O)C(=O)O)NC(c2nccs2)=N[C@H]1c1ccc(F)c(F)c1Cl | WST / absorbance | HepG2.2.15 | 81.8 µM
NC(=S)Nc1cccc(OCCCCCCOc2cccc3ccccc23)c1 | MTS | Ava5-EG(delta4AB)SEAP | >1 µM
O=C(NCCc1ccc2c(n1)NCCC2)Nc1ccc(Oc2ccccc2)cc1 |  | PBMC | 17.3 µM
CCCCCCCNC(=S)Nc1cccc(OCCCCCc2ccccc2)c1 | MTS | Ava5-EG(delta4AB)SEAP | >1 µM
CCOC(=O)C1=C(CN2CC(F)(F)[C@@H]3[C@H]2CON3C[C@@H](OC)C(C)(C)C(=O)O)NC(c2nccs2)=N[C@H]1c1ccc(F)cc1Cl | WST / absorbance | HepG2.2.15 | 72.8 µM
O=C(NCCc1ccc2c(n1)NCCC2)NCCc1ccccc1F |  | PBMC | 50 µM
CC(C)N(Cc1cccc(OCCCCCC(=O)OC(=O)O)c1)C(=O)c1ccc(-c2cccc(F)c2)cc1 |  | BJ | >20 µM
Cc1cccc(NC(=O)NCCc2ccc3c(n2)NCCC3)c1 |  | PBMC | 8 µM
CCOC(=O)C1=C(CN2CC(F)(F)[C@@H]3[C@H]2CON3CCC(C)(F)C(=O)O)NC(c2nccs2)=N[C@H]1c1cccc(F)c1C | WST / absorbance | HepG2.2.15 | >100 µM
CN1CCN(c2ccc(OCCCCCOc3cccc(NC(N)=S)c3)cc2)CC1 | MTS | Ava5-EG(delta4AB)SEAP | >1 µM
O=C(Cc1ccccc1)Nc1cc(=O)n(O)c2ncccc12 |  | HeLa | <100 µM
CC(C)N(Cc1cccc(OCCCCCC(=O)OC(=O)O)c1)C(=O)c1ccc(-c2cccc(C#N)c2)cc1 |  | BJ | >20 µM
CC(c1ccc(-c2cc(=O)n(O)c3ncccc23)cc1)N1CCOCC1 |  | HeLa | <100 µM
Cc1ccccc1CNC(=O)NCCc1ccc2c(n1)NCCC2 |  | PBMC | 50 µM
COC(=O)C1=C(CN2CC(F)(F)[C@H]3[C@@H]2CCN3C[C@@H](O)C(C)(C)C(=O)O)NC(c2nccs2)=N[C@H]1c1cccc(F)c1F | WST / absorbance | HepG2.2.15 | >100 µM
COc1ccc(NC(=O)c2c(O)c3cccnc3n(O)c2=O)cc1 |  | HeLa | <100 µM

A second listing of 3 rows from above:

structure	read by	cell line	value
NC(=S)Nc1cccc(OCCCCCCOc2cccc3ccccc23)c1	MTS	Ava5-EG(delta4AB)SEAP	>1 µM
CCOC(=O)CCCCOc1ccccc1C=O		RAJI	>20 µM
CCOC(=O)C1=C(CN2CC(F)(F)[C@H]3[C@@H]2CCN3CC[C@@](C)(O)C(=O)O)NC(c2nccs2)=N[C@H]1c1ccc(F)c(F)c1Cl	WST / absorbance	HepG2.2.15	81.8 µM